Where “and” joins values, the source holds several entries; their conditions need not be identical. Identical values can stand only once.
Tested on: M. smegmatis mc^2155 cells
Assay: M. smegmatis culture treated with mBBr: fate of mycothiol-related compounds and growth
Assay type: cell-based, Mycobacterium smegmatis
Description: Since mBBr is known to penetrate cells rapidly and to convert intracellular thiols to their bimane derivatives (Newton, et al. (1995) supra.), the fate of mycothiol in M. smegmatis cells treated with mBBr was examined to ascertain whether the reaction shown in FIG. 1C occurs in vivo. A logarithmic phase culture of M. smegmatis was cooled on ice to ˜3° C. to reduce enzymatic reactions prior to reaction with 0.5 mM mBBr. Excess reagent was reacted with 2-mercaptoethanol and the cells were pelleted, washed, and resuspended in a small amount of ice cold medium. The cells were diluted with prewarmed medium and replaced in the shaking incubator at 37° C. (time, t=0). Samples were removed and analyzed for intracellular and extracellular mycothiol related compounds over a 4 h interval (FIG. 3).
A logarithmic phase culture of M. smegmatis was cooled on ice to ˜3° C. to reduce enzymatic reactions prior to reaction with 0.5 mM mBBr. Excess reagent was reacted with 2-mercaptoethanol and the cells were pelleted, washed, and resuspended in a small amount of ice cold medium. The cells were diluted with prewarmed medium and replaced in the shaking incubator at 37° C. (time, t=0). Samples were removed and analyzed for intracellular and extracellular mycothiol related compounds over a 4 h interval (FIG. 3).
At t=0, […] per 100 mL (3.5 μmol per g RDW) of AcCySmB was present in the cells and […] per 100 mL was found in the medium. Within 5 min the cellular AcCySmB level had fallen to […] per 100 mL and the medium level increased to 220 nmol per 100 mL. Subsequent analyses found essentially all of the AcCySmB in the medium at a level of 225–230 nmol per 100 mL, accounting for 80–90% of the original cellular mycothiol content. No MSmB appears to be exported from cells as […] (<0.5%) was detected in the medium or the cell washes. A logarithmic phase culture (1 L) of M. smegmatis mc^2155 (OD600=1.2) in 7H9 Middlebrook medium was cooled on ice to 3° C. The iced culture was incubated with mBBr (0.5 mM from a 180 mM stock solution in acetonitrile) for 20 min; excess 2-mercaptoethanol (1.0 mM) was added, and the incubation continued on ice for an additional 10 min. The cells were pelleted by centrifugation and washed twice with 200 mL of sterile, ice-cold 7H9 Middlebrook medium to remove excess bimane derivative of 2-mercaptoethanol. The cells were resuspended in 50 mL of sterile ice cold medium and the experiment was initiated (t=0) by dilution into 950 mL of prewarmed (37° C.) 7H9 Middlebrook medium. The cell suspension was shaken in an incubator (225 rpm, 37° C.) and a “t=0” sample (100 mL) was removed from the culture within one min. This sample was mixed with an equal weight of ice and stored on ice until the second sample was taken similarly at 5 min, after which both were pelleted by centrifugation at 5000 g and 4° C. Additional samples were obtained in this manner at times up to 4 hours. An aliquot (0.5 mL) of supernatant was mixed with 0.5 mL of acetonitrile and incubated at 60° C. for 10 min. After centrifugation the supernatant was assayed by HPLC for bimane-labeled thiols in the medium. The pellet (always iced) was separated into 3 roughly equal parts in 1.5 mL microcentrifuge tubes and extracted for 10 min in 3 ways as follows.
The first sample was extracted using 1 mL of 60° C. acetonitrile-water for determination of cellular thiol-bimane derivatives. The second sample was extracted using 1 mL of 60° C. acetonitrile-water containing 2 mM mBBr and 20 mM tris(hydroxymethyl)aminomethane (Tris) pH 8.0 for determination of the sum of each cellular thiol and thiol-bimane derivative. The third sample was extracted using 1 mL of 60 C acetonitrile-water containing 5 mM N-ethylmaleimide (NEM) and 10 mM HEPES chloride pH 7.5. All tubes were centrifuged at 14000 g in a microcentrifuge and the supernatants removed for analysis. […]

For CC(=O)N[C@@H](CSCc1c(C)c(=O)n2c(=O)c(C)c(C)n12)C(=O)O [AcCySmB], the “AcCySmB in medium as share of the original cellular mycothiol content” value (subsequent analyses, up to 4 h) was 80–90%, the “AcCySmB level in the medium” value (subsequent analyses, up to 4 h) was 225–230 nmol per 100 mL and the “AcCySmB found in the medium” value (t=0) was 160 nmol per 100 mL and 160 mmol per 100 mL. For the same compound, the “cellular AcCySmB level” value (within 5 min at 37° C.) was 8 mmol per 100 mL and the “medium AcCySmB level” value (within 5 min at 37° C.) was 220 mmol per 100 mL and 220 nmol per 100 mL.

With N[C@H]1[C@@H](OC2[C@H](O)[C@H](O)C(O)[C@H](O)[C@H]2O)O[C@H](CO)[C@@H](O)[C@@H]1O (stereo partly drawn) [GlcN-Ins, 1-D-myo-inosityl-2-amino-2-deoxy-α-D-glucopyranoside] the “increase of cellular GlcN-Ins above the normal level” value (t=0) was about 25 fold.

Reference: patent publication US7183094B2, “Bacterial mycothiol S-conjugate amidase family” (The Regents of the University of California, priority 1999, dated 2007)
